Laboratory results taken from paper PMC10810197, “A KDPG sensor RccR governs Pseudomonas aeruginosa carbon metabolism and aminoglycoside antibiotic tolerance” (Nucleic Acids Research, 2023).

Biological target: RccR WT (Pseudomonas aeruginosa PAO1) (UniProt Q9HTC8)
Assay: EMSA
Settings: EMSA: 10 nM FAM-DNA, 20 mM Tris-HCl pH 8.5, 150 mM KCl, 5 mM MgCl2, 1 mM EDTA, 1 mM DTT, 0.8% Tween 20, 2.5% glycerol, on ice 30 min, 6% native PAGE, 0.5x TBE, recombinant protein, protein details: C-terminal His6, label: FAM, probe letters rebuilt from the primers and the genome

GGTCAATCCTTCAAGAAATGTATTGGTTGAGCACCGACTGACCCACTCAAAACCTGCTGGTGAAGGTTGTCTTGCGGGTGGCTCACCGCTGCATGGCGAGAGAATGACCGTGGCGAAGAATGACGCCGAGGAGGGGGTGGAGACGAACAGTTCGCGGACCGTGCTTCTCGACTGGATCAAGTGCCGTTCGGCTCGTGGTTGCCGGTGGGCGACTCGCTGTCGAGTCTTTCGATCTGGCTGATACGTAAACGCTTCCCCGTCCCTCAGGACAACTTCGTTCCAGTCGCAATCTCGTCAAGCCGCCTTGTGGGCAGATCAACACGGTGGAGGCCGAGGGCGTATCGGCGCAGGCACCGGGAGCTCGTCGTTTCAGAGCCCCTGATTAGCGGGAGCGGGGCCATCATGCTCTGGAAAAAATCCGTCGTCAAACGTTTTGTAGTGTTTTTTCAAGACTACTACACGAAGGTCTAAGAGTGACCGGATGGTCTTGTCTGGTCGAGATGTTT (double strand) [aceA promoter]
binding result (0.0625-8 mM KDPG): binds | binding result (no KDPG): binds

The exact form of at least one protein or probe is not confirmed.
